From paper PMC10491346, “Enzyme Mechanistic Studies of NMA1982, a Protein Tyrosine Phosphatase and Potential Virulence Factor in Neisseria meningitidis” (Research Square, 2023)

What follows are substances tested on Cc1cc(=O)oc2c(F)c(OP(=O)(O)O)c(F)cc12 (assay: purified protein). Settings: 50 mM Bis-Tris pH 6.0, 1.7 mM DTT, 0.005% Tween-20, room temperature.

“NMA1982 (Neisseria meningitidis FAM18; D84A/R149A)” and “NMA1982 (Neisseria meningitidis FAM18; R149A)” are within 1.5-fold of each other in Km: 33 µM for the first, 28 µM for the second.

“NMA1982 (Neisseria meningitidis FAM18; D84A)” was tested, and the Km was 40 µM.

Compared with “NMA1982 (Neisseria meningitidis FAM18; D84A/R149A)”, “NMA1982 (Neisseria meningitidis FAM18; R149A)” is 2.4-fold higher in kcat: 0.00011 s⁻¹ for the first, 0.00026 s⁻¹ for the second.

With “NMA1982 (Neisseria meningitidis FAM18; D84A)” the kcat was 2.7e-05 s⁻¹.

Going from “NMA1982 (Neisseria meningitidis FAM18; D84A/R149A)” to “NMA1982 (Neisseria meningitidis FAM18; R149A)”, the kcat/Km rises from 3.28 M⁻¹ s⁻¹ to 9.28 M⁻¹ s⁻¹ (2.8-fold).

Work on “NMA1982 (Neisseria meningitidis FAM18; D84A)” yielded a kcat/Km of 0.69 M⁻¹ s⁻¹.
